Reference: patent US7345026B2, “Hybrid or chimeric polynucleotides, proteins, and compositions comprising hepatitis B virus sequences” (Institut Pasteur, priority 1999, dated 2008)
Entries after “also recorded” stand apart in the source; their conditions may differ.

Tests used:
Design in all cases: species or system HHD mice
[1] = system: HHD-transfected RMA-S cells loaded with relevant peptides; settings: in vivo
[2] = system: HHD-transfected RMA-S target cells loaded with relevant peptides; settings: mouse, in vivo
[3] = system: peptide-loaded HHD-transfected RMA-S cells; settings: mouse, in vivo

With AAGIGILTV [Melan-A/MART-1.27] the “lysis in % (maximal lysis observed for each responder mouse)” value ([1]; sc) was “(15, 19) %”, the “CTL inducer hierarchy (in words)” value ([1]; mouse) was “weak” and the “CTL response when co-injected with helper peptide (in words)” value [2] was “strong CTL-inducers when associated with a helper peptide”. For the same sequence, the lysis in % [2] was “(10, 19, 20, 30) %” and the “CTL response against the epitope after polyepitope immunization (in words)” value [3] was “did not elicit CTL responses; also recorded: Significant responses”.
